Source: PMC9406121

Molecular target: DT390-IL-13 single-chain fusion cytotoxin (monomer) (Corynebacterium diphtheriae | not stated)
Assay: non-reducing SDS-PAGE; 4-12% gradient gels, samples in LDS buffer without heating and without reducing agent; stoichiometries from the relative front (Rf) against standards

DT390-IL-13 single-chain fusion cytotoxin (monomer)
stoichiometry N: 2.1
